Measured values from several laboratories, pooled; numbers as filed in NIAID ChemDB.

All rows: whole-cell or culture tests; organism: Herpes simplex virus 2

Conditions beyond the fields shown may differ between rows.

structure	strain	cell line	read by	read-out	dose	value
O=C(O[C@@H]1[C@@H](c2c(O)cc(O)c3c2O[C@H](c2cc(O)c(O)c(O)c2)[C@H](OC(=O)c2cc(O)c(O)c(O)c2)C3)c2c(O)cc(O)cc2O[C@@H]1c1cc(O)c(O)c(O)c1)c1cc(O)c(O)c(O)c1	196	VERO	plaque count	EC90	-	2.7 µM
Nc1nc2c(ncn2COCCO)c(=O)[nH]1	Heeter	HFF	plaque count	EC50	-	0.9 µg/mL
Nc1nc2c(ncn2C/C=C\CO)c(=O)[nH]1	B4327	VERO	plaque count	EC50	-	3.7 µM
O=c1[nH]c(=O)n([C@H]2C[C@H](O)[C@@H](CO)O2)cc1I	G	PRK	virus yield	EC99	-	0.8 µg/mL
Nc1ncnc2c1ncn2[C@@H]1O[C@H](CO)[C@@H](O)[C@@H]1O	Clinical isolate HEETER	MEF	plaque count	EC50	-	38 µM
O=C(NCc1ccc(Cl)cc1)c1cn2c3c(cc(CN4CCOCC4)cc3c1=O)OC(c1cccnc1)C2	L6089158 ACV resistant	HFF	plaque count	EC50	-	7.4 µM
Nc1nc2c(ncn2COCCO)c(=O)[nH]1	16064 8713 (acyclovir-resistant)	HFF	cytopathic effect	EC50	-	>50 µg/mL
Cc1cn([C@@H]2O[C@H](CO)[C@H]2CO)c(=O)[nH]c1=O	SR	HFF	plaque count	EC50	-	3.6 µg/mL
Nc1nc2c(ncn2CC[C@@H](O)CO)c(=O)[nH]1	91075	VERO	plaque count	EC50	-	4 µM
O=C(O)CP(=O)(O)O	MS	MEF	plaque count	EC50	-	15.8 µg/mL
O=c1ccn([C@@H]2O[C@H](CO)[C@@H](O)[C@@H]2F)c(=O)[nH]1	G	VERO	virus yield	inhibition	5 µM	98.9%
O=c1[nH]c(=O)n([C@H]2C[C@H](O)[C@@H](CO)O2)cc1I	BROD	-	-	MIC	-	11 µg/mL
O=c1[nH]c(=O)n([C@H]2C[C@H](O)[C@@H](CO)O2)cc1/C=C/Br	G	PRK	virus yield	EC99	-	3 µg/mL
Cc1nc(N(C)C(=O)Cc2ccc(-c3ccccn3)cc2)sc1S(N)(=O)=O	2 (G)	HEF	plaque count	EC90	-	0.91 µM
Cc1cn([C@@H]2O[C@H](CO)[C@@H](O)[C@@H]2F)c(=O)[nH]c1=O	G	VERO	virus yield	inhibition	10 µM	99.59%
Cn1cc(C(=O)NCc2ccc(Cl)cc2)c(=O)c2cc(CN3CCOCC3)ccc21	13076 (WILD TYPE)	HFF	plaque count	EC50	-	1.8 µM
Nc1nc(=O)n([C@H]2C[C@H](O)[C@@H](CO)O2)cc1F	-	HeLa	virus yield	EC90	-	5 µM
CC(=O)OC[C@H]1[C@H](COC(C)=O)[C@@H](CO)O[C@H]1n1cnc2c(N)ncnc21	E-196	MEF	plaque count	EC50	-	201 µM
O=c1[nH]c(=O)n([C@H]2C[C@H](O)[C@@H](CO)O2)cc1F	-	HeLa	virus yield	EC90	-	>250 µM
Nc1nc(=O)n([C@@H]2O[C@H](CO)[C@@H](O)[C@@H]2F)cc1I	G	VERO	virus yield	inhibition	1 µM	99.64%

Again, the opening 3 rows:

{"structure": "O=C(O[C@@H]1[C@@H](c2c(O)cc(O)c3c2O[C@H](c2cc(O)c(O)c(O)c2)[C@H](OC(=O)c2cc(O)c(O)c(O)c2)C3)c2c(O)cc(O)cc2O[C@@H]1c1cc(O)c(O)c(O)c1)c1cc(O)c(O)c(O)c1", "strain": "196", "cell line": "VERO", "read by": "plaque count", "read-out": "EC90", "value": "2.7 µM"}
{"structure": "Nc1nc2c(ncn2COCCO)c(=O)[nH]1", "strain": "Heeter", "cell line": "HFF", "read by": "plaque count", "read-out": "EC50", "value": "0.9 µg/mL"}
{"structure": "Nc1nc2c(ncn2C/C=C\\CO)c(=O)[nH]1", "strain": "B4327", "cell line": "VERO", "read by": "plaque count", "read-out": "EC50", "value": "3.7 µM"}

Percent inhibition refers to the dose given; in toxicity tests it is the harm to the cells. Blank or dashed fields: not listed here. ECn: concentration that inhibits the pathogen or its effect by n%.